A mixed list of measured activities; the numbers were collected in NIAID ChemDB.

Shared fields: growth or infection tests; species: Mycobacterium tuberculosis

Blank or dashed fields: not listed here. Percent inhibition refers to the dose given; in toxicity tests it is the harm to the cells. Lines come from different laboratories, so protocols vary. MIC bound: limit read from a one-dose screen. ECn is the concentration giving n% inhibition of infection, replication or growth.

compound	strain	cell line	read by	setting	measure	tested at	result
N#Cc1nc(CC(=O)c2ccccc2Cl)c(CC(=O)c2ccccc2Cl)nc1C#N	H37Rv	-	BACTEC	-	MIC bound	-	>12.5 µg/mL
COc1ccccc1NC(=O)C1=C(C)NC(C)=C(C(=O)Nc2ccccc2OC)C1c1ccc(SC)cc1	H37Rv	-	-	-	inhibition	2.5 µg/mL	93%
CCCCCCCCCCCNCCNC1CCCCC1	-	-	-	-	MIC	-	25 µM
C/C(=N\NC(=O)C[n+]1ccccc1)C(CN(CC(C)C)CC(C)C)C(=O)Nc1ccc(C)cc1C.[Cl-]	H37Rv	-	BACTEC	-	inhibition	12.5 µg/mL	19%
O=C(NNCc1ccccc1F)c1ccncc1	H37Rv (ethambutol-resistant)	-	-	-	MIC	-	1.95 µg/mL
O=C1c2cc(Cl)ccc2OP(=O)(c2ccccc2)N1c1ccc(C(F)(F)F)cc1	Praha 131	-	-	21 d	MIC	-	1 µM
NC[C@H]1O[C@H](O[C@H]2[C@H](O)[C@@H](O[C@H]3O[C@H](CO)[C@@H](O)[C@H](N)[C@H]3O)[C@H](N)C[C@@H]2N)[C@H](O)[C@@H](O)[C@@H]1O	TN2229 (N2)	-	-	-	MIC	-	>256 µg/mL
O=C(N/N=C/c1ccc(Cl)cc1Cl)c1ccc(F)cc1	H37Rv	-	BACTEC	-	MIC bound	-	>12.5 µg/mL
CCOC(=O)c1cc(-c2ccccc2)[nH]c1CC(=O)N/N=C/c1c[nH]c2ccccc12	H37Rv	-	BACTEC	-	inhibition	6.25 µg/mL	29%
Cc1c(N2CCN(C(=O)c3ccco3)CC2)c([N+](=O)[O-])cc2c(=O)c(C(=O)O)cn(-c3ccc(F)cc3F)c12	H37Rv	-	-	-	MIC	-	40.43 µM
CN1C(=O)c2ccccc2NC(=O)[C@]12O[C@@H]2c1ccccc1	H37Rv	-	BACTEC	-	inhibition	12.5 µg/mL	4%
CCCCC(CC)CN1CN(CC(CC)CCCC)CC(C)(NCCNCC(c2ccccc2)c2ccccc2)C1	-	-	-	-	MIC	-	25 µM
O=C(Nc1ccc(C(F)(F)F)cc1)c1cc(Cl)ccc1OP(=O)(c1ccccc1)c1ccccc1	7357/1998	-	-	21 d	MIC	-	1 µM
COc1cc2nc3n(c(=O)c2cc1OC)-c1ccccc1C3=O	MDR 10038	-	-	-	MIC	-	10 µg/mL
CCOc1cccc(NC(=O)OCC[NH+]2CCCC2)c1	My 331/88	-	-	-	MIC	-	>1000 µM
Nc1ccc(C(=O)O)c(O)c1	Clinical isolate 6	-	-	-	MIC	-	0.2 µg/mL
O=C(Nc1ccc(Cl)c(Cl)c1)c1cc(Cl)ccc1OP(=O)(c1ccccc1)c1ccccc1	My 331/88	-	-	7 d	MIC	-	2 µM
O=S1(=O)c2cc(S(=O)(=O)n3ccnc3)ccc2NC2=NCCCN21	H37Rv	-	BACTEC	-	inhibition	12.8 µg/mL	9%
CCOC(=O)c1c(C)c(-c2ccccc2)n(CC(=O)N/N=C/c2cn(C(C)=O)c3ccccc23)c1C	H37Rv	-	BACTEC	-	inhibition	6.25 µg/mL	0%
S=C1SCN(Cc2ccccc2)CN1Cc1ccccc1	H37Rv	-	BACTEC	-	MIC	-	6.25 µg/mL
CN[C@@H]1[C@H](O[C@H]2[C@H](O[C@H]3[C@H](O)[C@@H](O)[C@H](N=C(N)N)[C@@H](O)[C@@H]3N=C(N)N)O[C@@H](C)[C@]2(O)C=O)O[C@@H](CO)[C@H](O)[C@H]1O	Clinical isolate 1	-	-	-	MIC	-	>100 µg/mL
CCOc1cc(/C=N/N=c2\scc(-c3cc4cc(Br)ccc4oc3=O)n2C2CCCCC2)ccc1O	H37Rv	-	-	-	inhibition	12.5 µg/mL	89%
CCCCCOc1cccc(NC(=O)OCC[NH+]2CCCC2)c1	My 331/88	-	-	-	MIC	-	62.5 µM
O=C1c2c(Cl)cccc2-n2c1nc1ccccc1c2=O	MDR 10038	-	-	-	MIC	-	1 µg/mL
CCOC(=O)c1cc(-c2ccc(Cl)cc2)n(CC(=O)NN)c1C	H37Rv	-	BACTEC	-	EC50	-	>6.25 µg/mL
COc1ccc(NC(=O)OCC[NH+]2CCCC2)cc1	My 331/88	-	-	-	MIC	-	>1000 µM
CC(NNC(=O)c1ccncc1)c1ccc(F)cc1	Erdman	Macrophages	colony count	inside macrophages	EC50	-	<1.84 µg/mL
CO[C@H]1/C=C/O[C@@]2(C)Oc3c(C)c(O)c4c(O)c(c(/C=N/N5CCN(C6CCCC6)CC5)c(O)c4c3C2=O)NC(=O)/C(C)=C\C=C\[C@H](C)[C@H](O)[C@@H](C)[C@@H](O)[C@@H](C)[C@H](OC(C)=O)[C@@H]1C	L189	-	-	-	MIC	-	0.1 µg/mL
CC1=C(C(=O)Nc2ccc([N+](=O)[O-])cc2)C(c2ccc(Cl)cc2Cl)C(C(=O)Nc2ccc([N+](=O)[O-])cc2)=C(C)N1	H37Rv	-	-	-	EC50	-	<2.5 µg/mL
CC1CN(c2cc3c(cc2F)C(=O)c2nc4ccccc4c(=O)n2-3)CCN1C(=O)OC(C)(C)C	MDR 10038	-	-	-	MIC	-	>5 µg/mL
CC(CNC[C@@H]1CC[C@H]2C[C@@H]1C2(C)C)NCC12CC3CC(CC(C3)C1)C2	-	-	-	-	MIC	-	6.25 µM
CCOC(=O)c1c(C)c(-c2ccccc2)n(CC(=O)N/N=C/c2ccc([N+](=O)[O-])o2)c1C	H37Rv	-	BACTEC	-	EC50	-	>6.25 µg/mL
C=C1C(=O)O[C@@H]2C[C@@]3(C)CCC[C@H](C)C3=C[C@H]12	H37Rv	-	BACTEC	-	inhibition	12.5 µg/mL	48%
C/C(=N\NC(=O)c1ccncc1)c1ccc(F)cc1	Ethionamide-resistant	-	-	-	MIC	-	>1.6 µg/mL
CO[C@H]1/C=C/O[C@@]2(C)Oc3c(C)c(O)c4c(O)c(c(/C=N/N5CCN(C/C=C/c6ccccc6)CC5)c(O)c4c3C2=O)NC(=O)/C(C)=C\C=C\[C@H](C)[C@H](O)[C@@H](C)[C@@H](O)[C@@H](C)[C@H](OC(C)=O)[C@@H]1C	2219 (MDR)	-	-	-	MIC	-	>8 µg/mL
COc1cc2c(cc1OC)CN(c1c([N+](=O)[O-])cc3c(=O)c(C(=O)O)cn(-c4ccc(F)cc4F)c3c1C)CC2	H37Rv	-	-	-	MIC	-	11.33 µM
Cc1c[nH]c(C)c1C(=O)NN	H37Rv	-	BACTEC	-	inhibition	6.25 µg/mL	0%
O=C(Nc1ccc(S(=O)(=O)Nc2nccs2)cc1)c1ccncc1	H37Rv	-	resazurin	-	MIC bound	-	>6.25 µg/mL
COc1cccc(NC(=O)OCCN2CCCCC2)c1	My 331/88	-	-	-	MIC	-	1000 µM
COc1cc(CNCCNC(C)Cc2c[nH]c3ccccc23)cc(OC)c1OC	-	-	-	-	MIC	-	50 µM
O=C(Nc1ccccc1)c1ccccc1OP(=O)(Oc1ccccc1)Oc1ccccc1	My 331/88	-	-	14 d	MIC	-	250 µM
Cc1c(N2CCSCC2)c([N+](=O)[O-])cc2c(=O)c(C(=O)O)cn(C(C)(C)C)c12	H37Rv	-	-	-	MIC	-	30.83 µM
CCOC(=O)c1c(C)c(-c2ccccc2)n(CC(=O)N/N=C/c2cc3ccccc3[nH]2)c1C	H37Rv	-	BACTEC	-	EC50	-	>6.25 µg/mL
CO[C@H]1/C=C/O[C@@]2(C)Oc3c(C)c(O)c4c(O)c(c(/C=N/N5CCN(C)CC5)c(O)c4c3C2=O)NC(=O)/C(C)=C\C=C\[C@H](C)[C@H](O)[C@@H](C)[C@@H](O)[C@@H](C)[C@H](OC(C)=O)[C@@H]1C	Clinical isolate 12	-	-	-	MIC	-	0.1 µg/mL
COc1cc2ccccc2c2cc([N+](=O)[O-])oc12	H37Rv	-	resazurin	-	inhibition	6.25 µg/mL	100%
CC1=C(C(=O)Nc2ccccc2Cl)C(c2ccccc2Cl)C(C(=O)Nc2ccccc2Cl)=C(C)N1	H37Rv	-	-	-	inhibition	2.5 µg/mL	18%
COc1ccc(NC(=O)OCCN2CCOCC2)cc1	My 331/88	-	-	-	MIC	-	>1000 µM
CCCCCCCCCCCNCCNC1CCC(C)CC1	-	-	-	-	MIC	-	25 µM
CCOC(=O)c1cc(-c2ccccc2)n(CCC(=O)NN)c1C	H37Rv	-	BACTEC	-	EC50	-	>6.25 µg/mL
OCCOCCN1CCN(CCCN2c3ccccc3Sc3ccc(C(F)(F)F)cc32)CC1	H37Rv	-	BACTEC	-	MIC	-	12.5 µg/mL
CCOC(=O)c1cc(-c2ccc([N+](=O)[O-])cc2)n(CC(=O)N/N=C/c2ccc(O)c(OCC)c2)c1C	H37Rv	-	BACTEC	-	EC50	-	>6.25 µg/mL
C[CH2][Sn]([Cl])([Cl])[CH2]C.c1ccc(-c2ccnc3c2ccc2c(-c4ccccc4)ccnc23)cc1	H37Rv	-	BACTEC	-	MIC bound	-	≤12.5 µg/mL
CN1CCN(c2c(F)cc3c(c2F)-n2c(nc4ccccc4c2=O)C3=O)CC1	MDR 10038	-	-	-	MIC	-	>5 µg/mL
O=c1oc2ccccc2cc1-c1cs/c(=N\N=C\c2cc(Br)ccc2O)n1-c1ccccc1	H37Rv	-	-	-	MIC	-	>12.5 µg/mL
CCCCCOc1ccc(NC(=O)OCCN(C)C)cc1	My 331/88	-	-	-	MIC	-	32 µM
Cc1cc(NCCCCCCNc2cc(C)nc3cc(N(C)C)ccc23)c2ccc(N(C)C)cc2n1	H37Rv	-	BACTEC	-	inhibition	12.5 µg/mL	72%
O=C1c2cc([N+](=O)[O-])ccc2-n2c1nc1ccc(Cl)cc1c2=O	H37Rv	-	-	-	MIC	-	<1 µg/mL
Cc1c(N2CCSCC2)c([N+](=O)[O-])cc2c(=O)c(C(=O)O)cn(-c3ccc(F)cc3F)c12	H37Rv	-	-	-	MIC	-	13.54 µM
N#C[B][n+]1ccc(C(=O)NNCc2ccccc2)cc1	H37Rv	-	-	-	MIC	-	0.8 µg/mL
FC(F)(F)c1ccc2c(c1)N(CCCN1CCN(CCC3OCCCO3)CC1)c1ccccc1S2	H37Rv	-	BACTEC	-	inhibition	12.5 µg/mL	94%
CC(C)(CO)NCCNCCc1c[nH]c2ccccc12	-	-	-	-	MIC	-	25 µM
CN1CCN(c2cc3c(cc2F)C(=O)c2nc4ccccc4c(=O)n2-3)CC1	MDR 10038	-	-	-	MIC	-	10 µg/mL
O=C(N/N=C/c1cccc(C(F)(F)F)c1)c1ccncc1	H37Rv (ethambutol-resistant)	-	-	-	MIC	-	1 µg/mL
O=C1c2cc(F)ccc2-n2c1nc1cccc(F)c1c2=O	H37Rv	-	-	-	MIC	-	1 µg/mL
CC1=C(C(=O)Nc2ccc(C)cc2C)C(c2cccc([N+](=O)[O-])c2)C(C(=O)Nc2ccc(C)cc2C)=C(C)N1	H37Rv	-	-	-	EC50	-	<2.5 µg/mL
Cc1oc(C)c2c1C(=O)N(C)C2=O	H37Rv	-	BACTEC	-	MIC bound	-	>12.5 µg/mL
O=C1c2ccccc2OP(=O)(c2ccccc2)N1c1ccccc1	My 331/88	-	-	14 d	MIC	-	>500 µM
CCCCCCCCCCOc1ccc(NC(=O)OCCN(C)C)cc1	My 331/88	-	-	-	MIC	-	8 µM
O=C(N/N=C/c1cccc(F)c1)c1ccncc1	Ethambutol-resistant	-	-	-	MIC	-	≤0.1 µg/mL
O=CNc1ncc([N+](=O)[O-])s1	H37Rv	-	BACTEC	-	MIC bound	-	>12.5 µg/mL
CCOc1cc(/C=N/N=c2\scc(-c3cc4ccccc4oc3=O)n2C2CCCCC2)ccc1O	H37Rv	-	-	-	MIC	-	12.5 µg/mL
CC(=O)c1c(O)c(C)c(O)c2c1OC1=CC(=O)C(C(C)=O)C(=O)C12C	RMP-R	-	-	-	MIC	-	>12.5 µg/mL
Cc1c(N2CCCC(C(=O)N(C)C)C2)c([N+](=O)[O-])cc2c(=O)c(C(=O)O)cn(-c3ccc(F)cc3F)c12	H37Rv	-	-	-	MIC	-	11.52 µM
CCCCCCCOc1ccccc1NC(=O)OCC[NH+]1CCCC1	My 331/88	-	-	-	MIC	-	32 µM
O=C(Nc1ccc(Cl)c(Cl)c1)c1cc(Cl)ccc1OP(=O)(Oc1ccccc1)Oc1ccccc1	My 331/88	-	-	14 d	MIC	-	2 µM
CCCCn1c(-c2cc3ccccc3oc2=O)cs/c1=N\N=C\c1cc(Br)ccc1O	H37Rv	-	-	-	MIC	-	>12.5 µg/mL
CC(=O)Oc1ccc(C2COc3cc(OC(C)=O)c(OC(C)=O)cc3C2)cc1	H37Rv	-	BACTEC	-	inhibition	12.5 µg/mL	27%
Cc1c(N2CCC(N3CCCCC3)CC2)c([N+](=O)[O-])cc2c(=O)c(C(=O)O)cn(C(C)(C)C)c12	H37Rv	-	-	-	MIC	-	26.56 µM
COc1ccc(N=C2C(=Nc3ccc(OC)cc3)N(c3ccccc3[N+](=O)[O-])C(=S)N2c2ccc(OC)cc2)cc1	H37Rv	-	BACTEC	-	inhibition	12.5 µg/mL	0%
O=C1c2cc(Br)ccc2OP(=O)(c2ccccc2)N1c1ccc(C(F)(F)F)cc1	Praha 4	-	-	21 d	MIC	-	1 µM
COc1ccc(/C(C)=N/NC(=O)c2ccncc2)cc1OC	-	-	BACTEC	-	inhibition	0.5 µM	98%
CN1CCN(c2cccc3nc4n(c(=O)c23)-c2ccc(F)cc2C4=O)CC1	H37Rv	-	-	-	MIC	-	5 µg/mL
COc1ccc2nc3c(Cl)c(Cl)c(=O)c(Cl)c-3sc2c1	H37Rv	-	BACTEC	-	inhibition	12.5 µg/mL	-47%
CCCCN(CCNCCc1ccccc1OC)Cc1ccccc1	-	-	-	-	MIC	-	50 µM